In patent publication US20240132578A1 (published 2024):

Tests used:
Assay in all cases: cell-based or functional assay
[1] = target: HIV-1 Env of isolate MG RM-C-019 (HIV-1)
[2] = target: HIV-1 93IN905 envelope protein (Env) on pseudotyped virus (HIV-1 strain 93IN905)
[3] = target: HIV-1 IAVI_C22 envelope protein (Env) on pseudotyped virus (HIV-1 strain IAVI C22)
[4] = target: HIV-1 92TH021 envelope protein (Env) on pseudotyped virus (HIV-1 strain 92TH021)
[5] = target: HIV-1 NL43 envelope protein (Env) on pseudotyped virus (HIV-1 strain NL43)
[6] = target: HIV-1 94UG103 envelope protein (Env) on pseudotyped virus (HIV-1 strain 94UG103)
[7] = target: HIV-1 92BR020 envelope protein (Env) on pseudotyped virus (HIV-1 strain 92BR020)
[8] = target: HIV-1 Env of isolate MG RM-C-002 (HIV-1)
[9] = target: HIV-1 Env of isolate MG RM-C-006 (HIV-1)
[10] = target: HIV-1 Env of isolate MG RM-A-002 (pseudovirus) (HIV-1)
[11] = target: HIV-1 Env of isolate MG RM-A-004 (pseudovirus) (HIV-1)
[12] = target: HIV-1 Env of isolate MG RM-C-010 (HIV-1)
[13] = target: HIV-1 Env of isolate MG RM-A-003 (pseudovirus) (HIV-1)

B1: 1496_C09 (PG9) (TCN-109) (antibody, V domains shown)
VH: QRLVESGGGVVQPGSSLRLSCAASGFDFSRQGMHWVRQAPGQGLEWVAFIKYDGSEKYHADSVWGRLSISRDNSKDTLYLQMNSLRVEDTATYFCVREAGGPDYRNGYNYYDFYDGYYNYHYMDVWGKGTTVTVSS
VL: QSALTQPASVSGSPGQSITISCNGTSNDVGGYESVSWYQQHPGKAPKVVIYDVSKRPSGVSNRFSGSKSGNTASLTISGLQAEDEGDYYCKSLTSTRRRVFGTGTKLTVLG
IC50 (µg/mL), pseudovirus neutralization [1]: 0.005 µg/mL

B2: 1456_P20 (PG20) (antibody, V domains shown)
VH: QVRLVQSGPEVKKPGSSVTVSCQASGGTFSSYAFTWVRQAPGQGLEWLGMVTPIFGEAKYSQRFEGRVTITADESTSTTSIELRGLTSEDTAIYYCARDRRAVPIATDNWLDPWGQGTLVTVSS
VL: DIQLTQSPSSLSASVGDRVSITCRASQTINNYLNWYQQTPGKAPKLLIYGASNLQNGVPSRFSGSGSGTDFTLTISSLQPEDFATYYCQQSFSTPRTFGQGTRLDIKR
IC50, Neutralizing Antibody Assay, Virus/Ab Incubation 1 hour [2]: > 50 mg/L
IC50, Neutralizing Antibody Assay, Virus/Ab Incubation 1 hour [3]: > 50 mg/L
IC50, Neutralizing Antibody Assay, Virus/Ab Incubation 18 hour [3]: > 50 mg/L
IC50, Neutralizing Antibody Assay, Virus/Ab Incubation 1 hour [4]: > 50 mg/L
IC50, Neutralizing Antibody Assay, Virus/Ab Incubation 18 hour [4]: > 50 mg/L
IC50, Neutralizing Antibody Assay, Virus/Ab Incubation 1 hour [5]: 0.2 mg/L
IC50, Neutralizing Antibody Assay, Virus/Ab Incubation 18 hour [5]: 0.05 mg/L
IC50, Neutralizing Antibody Assay, Virus/Ab Incubation 1 hour [6]: > 50 mg/L
IC50, Neutralizing Antibody Assay, Virus/Ab Incubation 18 hour [6]: > 50 mg/L
IC50, Neutralizing Antibody Assay, Virus/Ab Incubation 1 hour [7]: > 50 mg/L
IC50, Neutralizing Antibody Assay, Virus/Ab Incubation 18 hour [7]: > 50 mg/L

B3: PGT-145 (4995_P16) (antibody, V domains shown)
VH: QVQLVQSGAEVKKPGSSVKVSCKASGNSFSNHDVHWVRQATGQGLEWMGWMSHEGDKTGLAQKFQGRVTITRDSGASTVYMELRGLTADDTAIYYCLTGSKHRLRDYFLYNEYGPNYEEWGDYLATLDVWGHGTAVTVSS
VL: EVVITQSPLFLPVTPGEAASLSCKCSHSLQHSTGANYLAWYLQRPGQTPRLLIHLATHRASGVPDRFSGSGSGTDFTLKISRVESDDVGTYYCMQGLHSPWTFGQGTKVEIK
IC50, pseudovirus neutralization [8]: 0.008 mg/L
IC50, pseudovirus neutralization [9]: 0.01 mg/L

B4: 4995_E20 (PGT-142) (antibody, V domains shown)
VH: QVQLVQSGPEVKKPGSSVKVSCKASGNTFSKYDVHWVRQATGQGLEWVGWISHERDKTESAQRFKGRVTFTRDTSATTAYMELRGLTSDDTAIYYCTRGSKHRLRDYVLYDDYGLINYQEWNDYLEFLDVWGHGTAVTVSS
VL: DTVVTQSPLSLPVTPGEAASMSCSSTQSLRHSNGANYLAWYQHKPGQSPRLLIRLGSQRASGVPDRFSGSGSGTHFTLKISRVEAEDAAIYYCMQGLNRPWTFGKGTKLEIK
IC50 (µg/mL), single-round pseudovirus neutralization [10]: 0.007 µg/mL
IC50 (µg/mL), single-round pseudovirus neutralization [11]: 0.002 µg/mL

B5: 4980_N08 (PGT-143) (antibody, V domains shown)
VH: QVQLEQSGAEVKKPGSSVKVSCKASGNTFSKYDVHWVRQATGQGLEWVGWMSHEGDKTESAQRFKGRVTFTRDTSASTAYMELRGLTSDDTAIYYCTRGSKHRLRDYVLYDDYGLINYQEWNDYLEFLDVWGHGTAVTVSS
VL: DTVVTQSPLSLPVTPGEAASMSCTSTQSLRHSNGANYLAWYQHKPGQSPRLLIRLGSQRASGVPDRFSGSGSGTHFTLKISRVEPEDAAIYYCMQGLNRPWTFGKGTKLEIK
IC50 (µg/mL), single-round pseudovirus neutralization [11]: 0.007 µg/mL

B6: 4993_K13 (PGT-141) (antibody, V domains shown)
VH: QVQLVQSGPEVKKPGSSVKVSCKASGNTFSKYDVHWVRQATGQGLEWVGWMSHEGDKTESAQRFKGRVTFTRDTSASTAYMELRGLTSDDTAIYYCTRGSKHRLRDYVLYDDYGLINYQEWNDYLEFLDVWGHGTAVTVSS
VL: DTVVTQSPLSLPVTPGEAASMSCSSTQSLRHSNGANYLAWYQHKPGQSPRLLIRLGSQRASGVPDRFSGSGSGTHFTLKISRVEAEDAAIYYCMQGLNRPWTFGKGTKLEIK
IC50 (µg/mL), single-round pseudovirus neutralization [11]: 0.007 µg/mL

B7: PGT-142 (4995_E20) (antibody, V domains shown)
VH: QVQLVQSGPEVKKPGSSVKVSCKASGNTFSKYDVHWVRQATGQGLEWVGWISHERDKTESAQRFKGRVTFTRDTSATTAYMELRGLTSDDTAIYYCTRGSKHRLRDYVLYDDYGLINYQEWNDYLEFLDVWGHGTAVTVSS
VL: DTVVTQSPLSLPVTPGEAASMSCSSTQSLRHSNGANYLAWYQHKPGQSPRLLIRLGSQRASGVPDRFSGSGSGTHFTLKISRVEAEDAAIYYCMQGLNRPWTFGKGTKLEIK
IC50, pseudovirus neutralization [12]: 0.07 mg/L

B8: 4970_K22 (PGT-144) (antibody, V domains shown)
VH: QVQLVQSGAEVKKPGSSVKVSCKASGNTFRKYDVHWVRQATGQGLEWVGWMSHEGDKTESAQRFKGRVSFTRDNSASTAYIELRGLTSDDTAIYYCTGGSKHRLRDYVLYDDYGLINQQEWNDYLEFLDVWGHGTAVTVSS
VL: DTVVTQSPLSLSVTPGEAASMSCTSTQSLRHSNGANYLAWYQHKPGQSPRLLIRLGSQRASGVPDRFSGSGSGTHFTLKISRVEADDAAIYYCMQGLNRPWTFGKGTKLEIK
IC50 (µg/mL), single-round pseudovirus neutralization [13]: > 50 µg/mL
